ChEMBL document CHEMBL5236559 (J Med Chem, 2021)

Species: Rattus norvegicus
Assay: Inhibition of recombinant rat TrxR expressed in Escherichia coli upto 100 nM using DTNB as substrate incubated for 30 mins in presence of NADPH by DTNB reduction assay
`Nc1cccc([As]2SCCCS2)c1` was tested, and the inhibition was “Active”.
With `Nc1ccccc1[As]1SCCCS1` the inhibition was “Active”.
With `Nc1ccc([As]2SCCCS2)cc1` the inhibition was “Active”.

Activity calls are given as the source filed them. No cut-off for these calls is given here.
